Weaker means in comparison with the reference protein, sequence or condition of that experiment.
Target: ArgR (Listeria monocytogenes 10403S) (UniProt A0A0H3GK31)
Test: EMSA
Settings: 50 mM Tris-HCl pH 8.0, 250 mM NaCl, 5.0 mM MgCl2, 2.5 mM DTT, 2.5 mM EDTA, 20% glycerol, 200 ng DNA, 30 min at room temperature, native 5% PAGE in 0.5x TAE, recombinant protein, residues 1-149, protein details: N-terminal His (pET30a(+) fusion), label: none (ethidium bromide stain), probe letters rebuilt from the primers and the genome
[1] = binds, weaker than argC and argG promoters
[2] = stronger than sigB and arcA promoters

GATCAATTAGTTAAAATGCAAAACTTTGAGTTGCATGATGACTTTACGCTTATTTGTATTAAGCGAACTAAATAAGAAGAAGTGAAGACGTACCTCATTCTTTAGAGAGCATTTACTGGTGAGTAAACGTATTTAAAGAGTGGAGCGTTTTTATTTTTGAATGTTTTAATTTTATTAGTTAGGGTAAAATCGACAGTATACTTAAAATTAGATGGGGTGAAGTGATGAATATTAGTATAGAAATAAAAGAACGTGATACTGACCACATAGACATATTTGTTGCTGGGGAGATCGATGCTTATACAGCGCCAAAGGTAA (double strand) [sigB promoter]
binding result [1]: binds more weakly

ATATCGCGAATCTACGTCGGATAATGGTGACGTGTTTTTCACAAATTCCTGTGAAGCCTTATCTAAATTCTCAAGAACCTCAGGATTATAATCTTTTTTCCCAACCGCTTTTTTGTAAATAAAGAAAACGATTAATAATGGAAGTAGAATAATCCCAGCAAAACCGATAGCGATCCATTTTATTGTATTTTTCACATTCGCTCAACTCCTTCAATATAACTTCAATAACAAGTATAGCAGTTTTATGAACAGGAACCAATTTATTACTATTTGAAATGATTATTTTTATTTAGAAATGTATTTTTAAGCATAATTATGAATAAATGAAAATAAAAAGGTTGATATCTAAAAGCATCGATGTTAATATAAATACAAATGTTTGTATATTTATGAATAGGGGATGTTTAAAATGGCGAAAGAAAAAATCGTATTAGCTTACTCAGGTGGGTTAGATACTTCTGTGGCAATTCAGTGGTTAGTAGAATCAGGTTATGAAGTTATTGCATGTTGCTTGGATGTTGG (double strand) [argG promoter]
binding result [2]: binds

TTCCTTCTGCATCATTTTTAAATACGGTATATCATCAAATAATAAAGATTCTAGGTATTCTGGTGTGATATTTTCGAGTTCAGAACCCGGCCTCTTTACAAGAACTGTTTGGAGTTTGCCAATTTCAGATGTAATATTCAATGCTTGTTCCATTTTCATCACCTCTTCCTAACTAATTACCCCAAAAGTTTGTCATGTATGCGAGAGATTTCCCGGGAAATAAAAAAAAGCACAGAGATTATTCTGCGCTTTTCTTGTCCATTTTACTTTTAATAAATGAAACAACCATTGGGATAACGGAAACTACAATAATTCCGATTACTACTAACGAGAAGTTGTCTTTAACAATTGGGAAATTGCCGAAGAAGTATCCTGCAAGCGTGCAAAGCAATACCCAGACTGTTGCTCCTAAAATATTATAATTTAAGAAATAGCGATAATTCATACGGCTTGCTCCA (double strand) [arcA promoter]
binding result [1]: binds more weakly

AAATCGAGCATTACGAAAGCTTCACAGATTTCGATGCGCTAATTGCAAAAGCTTTAGATAACATCGAAACCATTTCTGTAAATGTAGCGGAAACTGCGCAAGTGAAAGATGAGTTCGCTGATTTATTTTAAGATTAACCGTTTATCCTAGAAAAGGATAAACGGTTTTTTGTATATTATATACATAATAAATAACTTAAAATGCATAAAATAGTTTTAAATATTAATAAAAAACCATTTGACATTATAAATATACATCATTATAATGAAAAGTATCATTTAATAATTAACGGGGAGGGGTTAGGATGAAAGTTTCAATCATTGGCGCGACGGGGTATGGAGGACTTGAGCTAATTCGCTTGCTTCATCAACACTCTTCGGTAGACATAGCGACGTTACATAGTTTTTCCGCTCAAGCAGAAACGTTAGCAACTTTTTATCCACATTTAAAAGATTTAGCAGTTAGCCC (double strand) [argC promoter]
binding result [2]: binds
